Pooled drug test results. Numbers come from NIAID ChemDB, via PubChem.

All rows: growth or infection tests; agent: Hepatitis C virus

Lines come from different laboratories, so protocols vary.

{"compound": "COc1cccc(CN2CCC(C(=O)Nc3ccc(Oc4ccccc4F)cc3)CC2)c1O", "strain": "JFH-1", "read-out": "inhibition", "cell line": "Huh7", "method": "PCR", "tested at": "5 µM", "value": "≥40%"}
{"compound": "NC(=S)Nc1cccc(OCCCCCOc2ccc(N3CCOCC3)cc2)c1", "read-out": "EC50", "cell line": "Ava5-EG(delta4AB)SEAP", "method": "reporter gene / fluorescence", "value": "0.001–1 µM"}
{"compound": "Cc1cc(Cn2cc(CNC(=O)[C@]34CCC(C)(C)CC3C3=CCC5[C@@]6(C)CC[C@H](O)C(C)(C)C6CC[C@@]5(C)[C@]3(C)C[C@H]4O)nn2)c(C)cc1Cn1cc(CNC(=O)[C@]23CCC(C)(C)CC2C2=CCC4[C@@]5(C)CC[C@H](O)C(C)(C)C5CC[C@@]4(C)[C@]2(C)C[C@H]3O)nn1", "read-out": "inhibition", "cell line": "Huh7", "method": "luciferase / entry", "tested at": "1 µM", "value": "72.2%"}
{"compound": "O=C(N[C@@H](C(=O)N1CCC[C@H]1c1ncc(-c2ccc(-c3ccc(-c4cnc([C@@H]5CCCN5C(=O)[C@H](NC(=O)C5CC5)c5ccccc5)s4)cc3)cc2)s1)c1ccccc1)C1CC1", "strain": "genotype 1b", "read-out": "fold resistance", "cell line": "Huh7.5", "method": "luciferase / reporter gene", "mutations": "P58S", "value": "25"}
{"compound": "O=C(Nc1cccc(-c2cccc(Cl)c2)c1)C1CCN(Cc2ccccn2)CC1", "strain": "JFH-1", "read-out": "inhibition", "cell line": "Huh7", "method": "PCR", "tested at": "15 µM", "value": "≥40%"}
{"compound": "CC1(C)CC(=O)C2=C(C1)Nc1c(O)cccc1NC2c1ccc(OCc2ccccc2)c(Cl)c1", "strain": "1b", "read-out": "EC50", "method": "luciferase / reporter gene / replicon", "value": "12.65 µM"}
{"compound": "CC1(C)CC[C@@]2(C(=O)NCCCCNC(=O)[C@]34CCC(C)(C)CC3C3=CCC5[C@@]6(C)CC[C@H](O)C(C)(C)C6CC[C@@]5(C)[C@]3(C)C[C@H]4O)C(C1)C1=CCC3[C@@]4(C)CC[C@H](O)C(C)(C)C4CC[C@@]3(C)[C@]1(C)C[C@H]2O", "read-out": "inhibition", "cell line": "Huh7", "method": "luciferase / entry", "tested at": "5 µM", "value": "59.6%"}
{"compound": "NC(=S)Nc1ccc(OCCCCCOc2ccc(F)cc2F)cc1", "read-out": "EC50", "cell line": "Ava5-EG(delta4AB)SEAP", "method": "reporter gene / fluorescence", "value": "0.001–1 µM"}
{"compound": "CC1(C)CC[C@@]2(C(=O)NCc3cn(CC(Cn4cc(CNC(=O)[C@]56CCC(C)(C)CC5C5=CCC7[C@@]8(C)CC[C@H](O)C(C)(C)C8CC[C@@]7(C)[C@]5(C)C[C@H]6O)nn4)n4cc(CNC(=O)[C@]56CCC(C)(C)CC5C5=CCC7[C@@]8(C)CC[C@H](O)C(C)(C)C8CC[C@@]7(C)[C@]5(C)C[C@H]6O)nn4)nn3)C(C1)C1=CCC3[C@@]4(C)CC[C@H](O)C(C)(C)C4CC[C@@]3(C)[C@]1(C)C[C@H]2O", "read-out": "inhibition", "cell line": "Huh7", "method": "luciferase / entry", "tested at": "1 µM", "value": "19.8%"}
{"compound": "NC(=S)Nc1cccc(OCCCCOc2ccc(-c3ccccc3)cc2)c1", "read-out": "EC50", "cell line": "Ava5-EG(delta4AB)SEAP", "method": "reporter gene / fluorescence", "value": "0.001–1 µM"}
{"compound": "Cc1ccc(CN2CCC(C(=O)Nc3ccc(Oc4ccccc4F)cc3)CC2)o1", "strain": "JFH-1", "read-out": "inhibition", "cell line": "Huh7", "method": "PCR", "tested at": "15 µM", "value": "≥40%"}
{"compound": "CC1(C)CC[C@@]2(C(=O)NCc3cn(CCc4ccc(CCn5cc(CNC(=O)[C@]67CCC(C)(C)CC6C6=CCC8[C@@]9(C)CC[C@H](O)C(C)(C)C9CC[C@@]8(C)[C@]6(C)C[C@H]7O)nn5)cc4)nn3)C(C1)C1=CCC3[C@@]4(C)CC[C@H](O)C(C)(C)C4CC[C@@]3(C)[C@]1(C)C[C@H]2O", "read-out": "inhibition", "cell line": "Huh7", "method": "luciferase / entry", "tested at": "5 µM", "value": "81.1%"}
{"compound": "NC(=S)Nc1ccc(OCCCCCOc2ccc(Cl)cc2Cl)cc1", "read-out": "EC50", "cell line": "Ava5-EG(delta4AB)SEAP", "method": "reporter gene / fluorescence", "value": "0.001–1 µM"}
{"compound": "CC1(C)CC(=O)C2=C(C1)Nc1c(O)cccc1N(C(=O)NCC(=O)O)C2c1ccc(OCc2ccccc2)cc1Cl", "strain": "1b", "read-out": "EC50", "method": "luciferase / reporter gene / replicon", "value": "39.65 µM"}
{"compound": "Cc1nnc(-c2cccc(NC(=O)C3CCN(C(=O)c4ccco4)CC3)c2)s1", "strain": "JFH-1", "read-out": "inhibition", "cell line": "Huh7", "method": "PCR", "tested at": "15 µM", "value": "≥40%"}
{"compound": "CC(=O)N1c2cccc(O)c2NC2=C(C(=O)CC(C)(C)C2)C1c1cc(Cl)cc(Cl)c1", "strain": "1b", "read-out": "EC50", "method": "luciferase / reporter gene / replicon", "value": "3.52 µM"}
{"compound": "CC1(C)CC[C@@]2(C(=O)NCc3cn(CCCCCn4cc(CNC(=O)[C@]56CCC(C)(C)CC5C5=CCC7[C@@]8(C)CC[C@H](O)C(C)(C)C8CC[C@@]7(C)[C@]5(C)C[C@H]6O)nn4)nn3)C(C1)C1=CCC3[C@@]4(C)CC[C@H](O)C(C)(C)C4CC[C@@]3(C)[C@]1(C)C[C@H]2O", "read-out": "inhibition", "cell line": "Huh7", "method": "luciferase / entry", "tested at": "5 µM", "value": "71.9%"}
{"compound": "COC(=O)N[C@H](C(=O)N1CCC[C@H]1c1ncc(-c2ccc(-c3ccc(-c4cnc([C@@H]5CCCN5C(=O)[C@@H](NC(=O)OC)C(C)C)[nH]4)cc3)cc2)[nH]1)C(C)C", "strain": "1b", "read-out": "EC50", "cell line": "ET", "method": "luciferase", "mutations": "L31F", "value": "0.000022 µM"}
{"compound": "CC1(C)CC[C@@]2(C(=O)NCc3cn(-c4ccc(-n5cc(CNC(=O)[C@]67CCC(C)(C)CC6C6=CCC8[C@@]9(C)CC[C@H](O)C(C)(C)C9CC[C@@]8(C)[C@]6(C)C[C@H]7O)nn5)cc4)nn3)C(C1)C1=CCC3[C@@]4(C)CC[C@H](O)C(C)(C)C4CC[C@@]3(C)[C@]1(C)C[C@H]2O", "read-out": "inhibition", "cell line": "Huh7", "method": "luciferase / entry", "tested at": "1 µM", "value": "68.9%"}
{"compound": "S=C(NCCCc1ccccc1)Nc1cccc(OCCCCCc2ccccc2)c1", "read-out": "EC50", "cell line": "Ava5-EG(delta4AB)SEAP", "method": "reporter gene / fluorescence", "value": "0.001–1 µM"}
{"compound": "CC(=O)OC[C@]12[C@H](OC(C)=O)[C@H](OCc3ccccc3)[C@@H]3[C@@H](OC(C)=O)[C@@]14O[C@@]3(C)COC(=O)c1cccnc1C(C)C(C)C(=O)O[C@@H]([C@H](OC(C)=O)[C@@H]2OC(C)=O)[C@]4(C)O", "strain": "Subgenomic replicon S52", "read-out": "inhibition", "cell line": "Huh7.5", "method": "luciferase", "tested at": "50 µM", "mutations": "T1056A T1429I S2204I", "value": "78%"}
{"compound": "COc1c(-c2ccc3cc(NS(C)(=O)=O)ccc3c2)cc(-n2ccc(=O)[nH]c2=O)cc1C(C)(C)C", "strain": "genotype 1a H77", "read-out": "EC50", "cell line": "Huh7", "method": "luciferase", "mutations": "Y448H", "value": "0.936 µM"}
{"compound": "COc1cc(C(c2cc(OC)c3c(c2)OCO3)[C@@H]2COC(=O)[C@@H]2C)cc2c1OCO2", "strain": "Subgenomic replicon S52", "read-out": "inhibition", "cell line": "Huh7.5", "method": "luciferase", "tested at": "50 µM", "mutations": "P1220S D1430H S2204I", "value": "88%"}
{"compound": "CC1(C)CC(=O)C2=C(C1)Nc1c(O)cccc1NC2c1ccc(F)cc1F", "strain": "1b", "read-out": "EC50", "method": "luciferase / reporter gene / replicon", "value": ">100 µM"}
{"compound": "CC1CCC(C(=O)N(c2cc(C#CC(C)(C)C)sc2C(=O)O)C2CCC(O)CC2)CC1", "strain": "Con1 (gt 1b)", "read-out": "fold resistance", "cell line": "Huh7", "method": "luciferase", "mutations": "A486I", "value": "102.1"}
{"compound": "COc1cc(CN2CCC(C(=O)Nc3ccc(Oc4ccccc4F)cc3)CC2)ccc1O", "strain": "JFH-1", "read-out": "inhibition", "cell line": "Huh7", "method": "PCR", "tested at": "5 µM", "value": "≥40%"}
{"compound": "CCCCN(CCCC)c1ccc2c(c1)Cc1cc(NC(N)=S)ccc1-2", "read-out": "EC50", "cell line": "Ava5-EG(delta4AB)SEAP", "method": "reporter gene / fluorescence", "value": "0.001–1 µM"}
{"compound": "COC(=O)[C@H](C)NP(=O)(OC[C@H]1O[C@@H](n2ccc(=O)[nH]c2=O)[C@](C)(F)[C@@H]1O)Oc1ccccc1", "strain": "WILD TYPE", "read-out": "EC90", "method": "replicon / PCR", "value": "1.6 µM"}
{"compound": "CC(C)C(=O)N1c2cccc(O)c2NC2=C(C(=O)CC(C)(C)C2)C1c1ccc(OCc2ccccc2F)cc1F", "strain": "1b", "read-out": "EC50", "method": "luciferase / reporter gene / replicon", "value": "1.43 µM"}
{"compound": "CCCCCCCNC(=S)Nc1cccc(OCCCCCc2ccccc2)c1", "read-out": "EC50", "cell line": "Ava5-EG(delta4AB)SEAP", "method": "reporter gene / fluorescence", "value": "0.001–1 µM"}

Inhibition is in % at the dose shown (toxicity tests: loss of growth or viability). ECn is the concentration giving n% inhibition of infection, replication or growth. a–b is a range or a potency band. Fold resistance: result on the changed form divided by that on wild type.